A mixed list of measured activities; the numbers were collected in NIAID ChemDB.

Common to all: enzyme or target tests; target: Cathepsin D

An empty or dashed field is not shown.

{"structure": "CSC[C@H](NC(=O)COc1cccc2ccccc12)C(=O)N[C@@H](Cc1ccccc1)[C@H](O)C(=O)N1CSC(C)(C)[C@H]1C(=O)NC(C)(C)C", "method": "HPLC", "endpoint": "IC50", "result": "1.5 µM"}
{"structure": "CCCCNC(=O)[C@H](C)C[C@H](O)[C@H](CC1CCCCC1)NC(=O)[C@@H](NC(=O)[C@H](CCC(N)=O)NC(=O)OC(C)(C)C)C(C)C", "endpoint": "IC50", "result": "0.17 µM"}
{"structure": "CC(C)(C)OC(=O)N[C@@H](Cc1ccccc1)[C@H](O)CNC[C@@H](O)[C@H](Cc1ccccc1)NC(=O)C(C)(O)C(C)(C)C", "method": "absorbance", "endpoint": "IC50", "result": ">31 µM"}
{"structure": "CCCCNC(=O)[C@H](C)C[C@H](O)[C@H](CC1CCCCC1)NC(=O)[C@@H](NC(=O)[C@H](CCCN)NC(=O)OCc1ccccc1)C(C)C", "endpoint": "IC50", "result": "96 µM"}
{"structure": "CC(C)[C@H](NS(=O)(=O)CCc1ccccn1)C(=O)N[C@@H](Cc1ccccc1)C(=O)C(F)(F)[C@H](Cc1ccccc1)NC(=O)[C@@H](NS(=O)(=O)CCc1ccccn1)C(C)C", "endpoint": "IC50", "result": ">100 µM"}
{"structure": "CCCCNC(=O)[C@H](C)C[C@H](O)[C@H](CC1CCCCC1)NC(=O)[C@@H](NC(=O)[C@H](Cc1cccc2ccccc12)NC(=O)OC(C)(C)C)C(C)C", "endpoint": "IC50", "result": "1.5 µM"}
{"structure": "CC(C)[C@H](NC(=O)CCc1ccccn1)C(=O)N[C@@H](Cc1ccccc1)C(=O)C(F)(F)[C@H](Cc1ccccc1)NC(=O)[C@H](NC(=O)CCc1ccccn1)C(C)C", "endpoint": "IC50", "result": ">100 µM"}
{"structure": "CC(C)(C)NC(=O)[C@H]1N(C(=O)[C@@H](O)[C@H](Cc2ccccc2)NC(=O)[C@H](CC(N)=O)NC(=O)COc2cccc(Nc3ccccc3)c2)CSC1(C)C", "method": "HPLC", "endpoint": "IC50", "result": "1.6 µM"}
{"structure": "CC1(C)S[C@H]([C@H](NC(=O)Cc2ccccc2)C(=O)NCc2ccccc2)N[C@H]1C(=O)NCCNC(=O)[C@@H]1N[C@@H]([C@H](NC(=O)Cc2ccccc2)C(=O)NCc2ccccc2)SC1(C)C", "endpoint": "IC50", "result": ">100 µM"}
{"structure": "CC(C)(C)NC(=O)[C@H]1N(C(=O)[C@@H](O)[C@H](Cc2ccccc2)NC(=O)[C@H](CC(N)=O)NC(=O)COc2cccc3ccccc23)CSC1(C)C", "method": "HPLC", "endpoint": "IC50", "result": "6.5 µM"}
{"structure": "CC(C)[C@H](NC(=O)[C@@H](NC(=O)C(Cc1ccccc1)CP(=O)(O)C(Cc1ccccc1)NC(=O)c1ccccc1)C(C)C)C(N)=O", "conditions": "pH 3.5", "endpoint": "Ki", "result": "0.017 µM"}
{"structure": "CSC[C@H](NC(=O)COc1cccc2cnccc12)C(=O)N[C@@H](Cc1ccccc1)[C@H](O)C(=O)N1CSC(C)(C)[C@H]1C(=O)NC(C)(C)C", "method": "HPLC", "endpoint": "IC50", "result": "23 µM"}
{"structure": "CC(C)[C@H](NC(=O)[C@@H](NC(=O)C1CCCC1P(=O)(O)C(Cc1ccccc1)NC(=O)OCc1ccccc1)C(C)C)C(N)=O", "conditions": "pH 3.5", "endpoint": "Ki", "result": "0.3 µM"}
{"structure": "CC(C)[C@H](NC(=O)OCc1ccccn1)C(=O)N[C@@H](Cc1ccccc1)C(=O)C(F)(F)[C@H](Cc1ccccc1)NC(=O)[C@@H](NC(=O)OCc1ccccn1)C(C)C", "endpoint": "IC50", "result": "94 µM"}
{"structure": "CC[C@H](C)[C@H](NC(=O)OCc1ccccc1)C(=O)N[C@@H](Cc1cnc[nH]1)C(=O)NC(Cc1ccccc1)P(=O)(O)CC(Cc1ccccc1)C(=O)N[C@H](C(=O)N[C@H](C(N)=O)C(C)C)C(C)C", "conditions": "pH 3.5", "endpoint": "Ki", "result": "0.011 µM"}
{"structure": "CC(C)CN(C[C@@H](O)[C@H](Cc1ccccc1)NC(=O)O[C@H]1CCOC1)S(=O)(=O)c1ccc(N)cc1", "endpoint": "IC50", "result": "15.2 µM"}
{"structure": "CC(C)(C)NC(=O)[C@@H]1CSCN1C(=O)[C@@H](O)[C@H](Cc1ccccc1)NC(=O)[C@H](CC(N)=O)NC(=O)COc1cccc2ccccc12", "method": "HPLC", "endpoint": "IC50", "result": "100 µM"}
{"structure": "Cc1cccc(COC(=O)N[C@H](C(=O)N[C@@H](Cc2ccccc2)C(=O)C(F)(F)[C@H](Cc2ccccc2)NC(=O)[C@@H](NC(=O)OCc2cccc(C)n2)C(C)C)C(C)C)n1", "endpoint": "IC50", "result": ">100 µM"}

The last 2 rows once more:

structure | method | conditions | endpoint | result
CC(C)(C)NC(=O)[C@@H]1CSCN1C(=O)[C@@H](O)[C@H](Cc1ccccc1)NC(=O)[C@H](CC(N)=O)NC(=O)COc1cccc2ccccc12 | HPLC | - | IC50 | 100 µM
Cc1cccc(COC(=O)N[C@H](C(=O)N[C@@H](Cc2ccccc2)C(=O)C(F)(F)[C@H](Cc2ccccc2)NC(=O)[C@@H](NC(=O)OCc2cccc(C)n2)C(C)C)C(C)C)n1 | - | - | IC50 | >100 µM

Conditions beyond the fields shown may differ between rows. ICn is the concentration giving n% inhibition.